We go through one compound from ChEMBL document CHEMBL6177980 (J Med Chem, 2025).

Series [1] is described as follows: Selectivity index, ratio of CC50 for cytotoxicity against African green monkey Vero cells to EC50 for antiviral activity against SFTSV infected in African green monkey Vero cells assessed as reduction in viral replication.
Series [2] has as its system Mammarenavirus choriomeningitidis. As to the kind of experiment: Antiviral activity against LCMV infected in human A549 cells assessed as reduction in viral replication pretreated for 1 hr followed by viral infection for 1 hr and subsequent replacement of fresh medium containing compound measured after 48 hrs post-infection by RT-qPCR analysis. Background: In qPCR the cycle at which signal appears reflects the starting amount.

Series [3] has as its system Severe fever with thrombocytopenia syndrome virus. The series can be described thus: Antiviral activity against SFTSV infected in African green monkey Vero cells assessed as reduction in viral replication pretreated for 1 hr followed by viral infection for 1 hr and subsequent replacement of fresh medium containing compound measured after 48 hrs post-infection by RT-qPCR analysis.

By EC50 is commonly meant the concentration giving half of the maximal effect. For the compound `CC(C)C(=O)OC[C@@]1(F)O[C@@H](n2ccc(=O)n(COC(=O)c3cccnc3)c2=O)[C@H](OC(=O)C(C)C)[C@@H]1OC(=O)C(C)C`, in series [1], the Ratio CC50/EC50 is greater than 112. The EC50 in series [2] stood at 150 nM; in series [3], 890 nM.
